Reference: patent US6362166B1, “Antipicornaviral compounds and methods for their use and preparation” (Agouron Pharmaceuticals, Inc., priority 1996, dated 2002)

system: HRV-14; test: Antirhinoviral HI-HeLa Cell Culture Assay (Cell Protection Assay, XTT dye reduction); type: cell-based, human rhinovirus (HRV) serotype-14; conditions: therapeutic index = CC50 divided by EC50; HRV-14, HI-HeLa
Procedure: In the Cell Protection Assay, the ability of compounds to protect cells against HRV infection was measured by the XTT dye reduction method. This method is described in Weislow, O. S., R. Kiser, D. L. Fine, J. Bader, R. H. Shoemaker, and M. R. Boyd, J. Natl. Cancer Inst. 1989, 81, 577-586, which is incorporated herein by reference.
HI-HeLa cells were infected with HRV-14 at a multiplicity of infection (m.o.i.) of 0.13 (virus particles/cell) or mock-infected with medium only. Infected or mock-infected cells were resuspended at 8×10^5 cells per mL and incubated with appropriate concentration of compounds of formulas I and II. Two days later, XTT/PMS was added to test plates and the amount of formazan produced was quantified spectrophotometrically at 450/650 nm. […] The therapeutic index (TI) was calculated by dividing the CC50 by the EC50.
All strains of human rhinovirus (HRV) for use in this assay were purchased from American Type Culture Collection (ATCC), except for HRV serotype-14, which was produced from the infectious cDNA clone, constructed and supplied to us by Dr. Roland Rueckert at the Institue for Molecular Virology, University of Wisconsin, Madison, Wisc. HRV stocks were propagated, and antiviral assays were perforemd in HI-HeLa cells (ATCC). Cells were grwon in Minimal Essential Medium, available from Life Technologies, with 10% fetal bovine serum.
The compounds were tested against control compounds WIN 51711, WIN 52084, and WIN 54954, all obtained from Sterling-Winthrop Pharmaceuticals, and control compound Pirodavir, obtained from Janssen Pharmaceuticals.

Row | SMILES | TI
1 | CCOC(=O)/C(C)=C/[C@H](CCC(N)=O)NC(=O)[C@H](Cc1ccc(C)cc1)NC(=O)[C@@H](NC(=O)SC1CCCC1)C(C)(C)C [Compound 175, Ethyl-2-Methyl-3-[Cyclopentylthiocarbonyl-L-α-(t-Butyl-Gly)-L-(4-Me-Phe)-L-Gln]-E-Propenoate] | >555
2 | CCOC(=O)/C=C/[C@H](CCC(N)=O)NC(=O)[C@H](Cc1cnc[nH]1)NC(=O)[C@H](CC(C)C)NC(=O)OCc1ccccc1 [Compound 112] | >12
3 | CC(C)C[C@H](NC(=O)OCc1ccccc1)C(=O)N[C@@H](Cc1ccccc1)C(=O)NC(/C=C/C#N)CCC(N)=O (mixture of isomers) [Compound 14, 3-(CBZ-L-Leu-L-Phe-DL-Gln)-E-Propenonitrile] | 28
4 | CC(C)C[C@H](NC(=O)OCc1ccccc1)C(=O)N[C@@H](Cc1ccccc1)C(=O)N[C@H](/C=C/C(=O)N1CCCCO1)CCC(N)=O [Compound 84] | >20
5 | CCOC(=O)/C=C/[C@H](CCC(N)=O)NC(=O)[C@H](Cc1ccccc1)NC(=O)[C@@H](NC(=O)OCc1ccccc1)C(C)(C)C [Compound 151] | 555
6 | COc1ccc(C(=O)/C=C/[C@H](CCC(N)=O)NC(=O)[C@H](Cc2ccccc2)NC(=O)[C@H](CC(C)C)NC(=O)OCc2ccccc2)cc1 [Compound 42] | >4
7 | CCOC(=O)/C(C)=C/[C@H](CCC(N)=O)NC(=O)[C@H](Cc1ccccc1)NC(=O)[C@H](CC(C)C)NC(=O)SC(C)C [Compound 171] | >140
8 | CCOC(=O)/C=C/[C@H](CCC(N)=O)NC(=O)[C@H](Cc1ccccc1)NC(=O)[C@H](CC(C)C)NC(=O)c1ccccc1 [Compound 67] | >62
9 | CCOC(=O)/C=C/[C@H](CCC(N)=O)NC(=O)[C@H](Cc1ccccc1)NC(=O)[C@H](CC(C)C)NC(=O)c1ccc(Oc2ccccc2)cc1 [Compound 104] | >61
10 | CCOC(=O)/C=C/[C@H](CCC(N)=O)NC(=O)[C@H](Cc1ccccc1)NC(=O)[C@H](CCC(=O)O)NC(=O)OCc1ccccc1 [Compound 154] | >58
11 | CCOC(=O)/C=C/[C@H](CCC(N)=O)NC(=O)[C@H](Cc1ccccc1)NC(=O)[C@H](CC(C)C)NC(=O)CSc1ccccn1 [Compound 118] | >18
12 | Cc1cc(CCCCCOc2c(Cl)cc(C3=NCCO3)cc2Cl)on1 [WIN 54954, reference compound] | >30
13 | CC(C)C[C@H](NC(=O)OCc1ccccc1)C(=O)N[C@@H](Cc1ccccc1)C(=O)N[C@H](/C=C/C(=O)n1ccc2ccccc21)CCC(N)=O [Compound 89] | 16
14 | CC(C)C[C@H](NC(=O)OCc1ccccc1)C(=O)N[C@@H](Cc1ccccc1)C(=O)N[C@H](/C=C/C(=O)n1cccc1)CCC(N)=O [Compound 66] | 5
15 | Cc1cc(CCCCCCCOc2ccc(C3=N[C@@H](C)CO3)cc2)on1 [WIN 52084, reference compound] | >143
16 | CCC[C@H](NC(=O)[C@H](CC(C)C)NC(=O)OCc1ccccc1)C(=O)N[C@H](/C=C/C(=O)OCC)CCC(N)=O [Compound 137] | >1
17 | CC(C)CC(NC(=O)OCc1ccccc1)C(=O)NC(Cc1ccccc1)C(=O)NC(C=C1CCOC1=O)CCC(N)=O (stereo not shown) [Compound 90] | >61
18 | CC(C)C[C@H](NC(=O)OCc1ccccc1)C(=O)N[C@@H](Cc1ccccc1)C(=O)N[C@H](/C=C/C(=O)N1CCc2ccccc21)CCC(N)=O [Compound 85] | >20
19 | CCOC(=O)/C=C/[C@H](CCC(N)=O)NC(=O)[C@H](Cc1ccccc1)NC(=O)[C@H](CC(C)C)NC(C)=O [Compound 107] | >23

Row | SMILES | TI
20 | CCOC(=O)/C=C/[C@H](CCC(N)=O)NC(=O)[C@H](Cc1ccccc1)NC(=O)[C@H](CC(C)C)NC(=O)OCc1ccncc1 [Compound 36] | >57
21 | CCOC(=O)/C=C/[C@H](CNC(C)=O)NC(=O)[C@H](Cc1ccccc1)NC(=O)[C@H](CC(C)C)NC(=O)OCc1ccccc1 [Compound 4, Ethyl-3-[CBZ-L-Leu-L-Phe-L-(N-Ac-amino)-Ala]-E-Propenoate] | >146
22 | CCOC(=O)/C=C/[C@H](CCC(N)=O)NC(=O)[C@H](Cc1ccccc1)NC(=O)[C@@H](NC(=O)SCC)C(C)(C)C [Compound 167, Ethyl-3-[Ethylthiocarbonyl-L-α-(t-Butyl-Gly)-L-Phe-L-Gln]-E-Propenoate] | >1204
23 | CC(C)C[C@H](NC(=O)OCc1ccccc1)C(=O)N[C@@H](Cc1ccccc1)C(=O)N[C@H](/C=C/C(=O)N1CC=CC1)CCC(N)=O [Compound 41] | 1
24 | CC(C)C[C@H](NC(=O)OCc1ccccc1)C(=O)N[C@@H](Cc1ccccc1)C(=O)N[C@H](/C=C/C(=O)N1CCCO1)CCC(N)=O [Compound 79] | >7
25 | CCOC(=O)/C=C/[C@H](CCC(N)=O)NC(=O)[C@H](Cc1ccccc1)NC(=O)[C@@H](NC(=O)SC1CCCC1)C(C)(C)SC [Compound 178, Ethyl-3-[Cyclopentylthiocarbonyl-L-(S-Me-Pen)-L-Phe-L-Gln]-E-Propenoate] | >1000
26 | CCOC(=O)/C=C/[C@H](CCC(N)=O)NC(=O)[C@H](Cc1ccccc1)NS(=O)(=O)c1ccccc1 [Compound 34, Ethyl-3-[N-(Phenylsulfonyl)-L-Phe-L-Gln]-E-Propenoate] | >1
27 | CC(C)C[C@H](NC(=O)OCc1ccccc1)C(=O)N[C@@H](Cc1ccccc1)C(=O)N[C@H](/C=C/CSc1ccccn1)CCC(N)=O [Compound 75] | >20
28 | CSc1cccc2c1N(C(=O)/C=C/[C@H](CCC(N)=O)NC(=O)[C@H](Cc1ccccc1)NC(=O)[C@H](CC(C)C)NC(=O)OCc1ccccc1)CC2 [Compound 96] | 5
29 | CCOC(=O)/C=C/[C@H](CCC(N)=O)NC(=O)[C@H](Cc1ccccc1)NC(=O)[C@H](CC(C)C)NC(=O)CO [Compound 111] | >11
30 | CCOC(=O)/C=C/[C@H](CCC(N)=O)NC(=O)[C@H](Cc1ccccc1)NC(=O)OCc1ccccc1 [Compound 30, Ethyl-3-(CBZ-L-Phe-L-Gln)-E-Propenoate] | 18
31 | CCOC(=O)/C=C/[C@H](CCC(N)=O)NC(=O)[C@H](Cc1ccc(F)cc1)NC(=O)[C@@H](NC(=O)SC1CCCC1)C(C)(C)Sc1ccc([N+](=O)[O-])cc1 [Compound 185] | >200
32 | CCOC(=O)/C=C/[C@H](CCC(N)=O)NC(=O)[C@H](Cc1ccc(OC)cc1)NC(=O)[C@H](CC(C)C)NC(=O)OCc1ccccc1 [Compound 103] | >188
33 | CCOC(=O)/C=C/[C@H](CCC(N)=O)NC(=O)[C@H](Cc1ccc(OC(C)=O)cc1)NC(=O)[C@H](CC(C)C)NC(=O)OCc1ccccc1 [Compound 100] | >29
34 | CCOC(=O)/C=C/[C@H](CCC(N)=O)NC(=O)CNC(=O)[C@H](CC(C)C)NC(=O)OCc1ccccc1 [Compound 99] | >2
35 | CCOC(=O)/C=C/[C@H](CCC(N)=O)NC(=O)[C@H](Cc1ccc(F)cc1)NC(=O)[C@H](CC(C)C)NC(=O)OCc1ccccc1 [Compound 35, Ethyl-3-[CBZ-L-Leu-L-(4-F-Phe)-L-Gln]-E-Propenoate] | >178
36 | CCOC(=O)/C=C/[C@H](CCC(N)=O)NC(=O)[C@H](C)NC(=O)[C@H](CC(C)C)NC(=O)OCc1ccccc1 [Compound 109] | >16
37 | CCOC(=O)/C=C/[C@H](CCC(N)=O)NC(=O)[C@H](Cc1ccc(O)cc1)NC(=O)[C@H](CC(C)C)NC(=O)OCc1ccccc1 [Compound 53] | >60
